PubChem BioAssay AID504761 | Drosophila RNAi Screening Center | 2011

- Assay: 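Insect host genes that dengue virus relies on to spread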 (primary screen)
- Cells: D.Mel-2 cells from Drosophila
- Reagents: long dsRNA against Drosophila genes
- Conditions: infection with dengue virus type 2; dose and infection time not stated
- Measurement: 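Per well on two replicate plates, imaging gave the percent of cells positive for viral envelope protein, ranked by infection, and a nuclear count of cells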
- Scale: infection score: higher = more virus-infected cells; cell count: higher = more cells in the well
- Rule for the call: 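Very low infection ranking in both replicate wells (chance probability at most 0.065), then a retest showing infection dropped 1.5-fold or more at p below 0.05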
- Meaning of the calls: active = confirmed: knock-down lowers infection; inactive = not picked or not confirmed
The screen tested about 22,000 reagents; shown is an unselected part of those that have a named target and a result. Of all reagents, 116 (0.52%) got an active call. 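Calls depend on retest data that are not deposited; infection was ranked per plate without normalising between plates; the unit of the infection score is not given.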 Raw values are not corrected between plates. A number with no mark means an inactive call. A plus sign joins genes that one reagent is predicted to hit. Not stated in the record: the amount of reagent, the time to read-out.

target	amplicon	infection score, replicate 1	infection score, replicate 2	cell count, replicate 1	cell count, replicate 2
Ir67a	DRSC09897	2.73	2.57	6230	6694
CG7692	DRSC10902	2.88	22.5	6490	6122
CG7692	DRSC24040	3.98	0.92	6557	6540
yellow-f2	DRSC16372		21	432	3330
yellow-f2	DRSC26523	7.7	7.98	5808	6339
CG8788	DRSC07267	17.2	9.6	5559	6396
Phae1	DRSC02554	5.47	4.27	6691	6503
CG7567	DRSC16258	2.29	1.71	6693	643
Srp9	DRSC10973	1.21	3.67	6431	6602
Hcf	DRSC17143	7.17	7.04	5589	6067
Pepck1	DRSC07505	0.6	1.06	6183	6414
Pepck1	DRSC26468	2.08	7.75	5875	5732
msk	DRSC11340	6.78	5.4	6567	6465
msk	DRSC23929	6.33	0.98	5828	6761
Orc5	DRSC03390	1.51	1.11	6283	6492
Orc5	DRSC28207	34.2	9.34	4233	1039
CG1889 + CG43386	DRSC17979	3.62	1.45	6767	6622
CG17219	DRSC00486	3.67	3.84	6314	6691
CG10486	DRSC09735	1.06	3.44	6158	6025
Fad2	DRSC11165	0.52	1.41	4964	5179
Fad2	DRSC23579	2.13	4.46	6277	5893
CG31115	DRSC13692	0.93	0.14	6038	6475
CG31115	DRSC26097	4.32	8.48	5160	6112
NPFR	DRSC12173	4.28	6.54	6611	6838
Ald2	DRSC15799	5.85	7.88	5449	3517
Ald2	DRSC25164	2.76	3.56	5983	5837
Ndfip	DRSC11201	8.63	7.92	3942	1806
Ude	DRSC15324	5.47	3.61	6219	6676
CG31560	DRSC12136	13.3	1.14	5924	7199
NaPi-T	DRSC07476	17.4	19.5	5768	5166
NaPi-T	DRSC24468	3.59	1.81	5482	5958
TotF	DRSC02305	21.8	23	4555	5400
POLDIP2	DRSC12194	4.25	6.28	6799	6738
Atg6	DRSC15798	2.32	3.47	6843	6303
Atg6	DRSC24442	5.85	2.08	6322	5958
Sclp	DRSC19851	1.5	10	6620	6580
SpdS	DRSC16408	1.23	15.5	5607	5616
CG10257	DRSC05985	5.06	15.5	6368	6173
Semp1	DRSC01874	9.6	3.44	4522	6882
CG9346	DRSC04542	17.5	10.2	6467	6706
CG34386	DRSC06468	15.2	12.2	5884	6795
CG34386	DRSC23234	1.79	11.9	6831	7287
CG34386	DRSC29597		8.94	300	2741
Rbp1	DRSC16817	26	24.6	5470	5935
CG34210	DRSC04579	10.8	7.47	6251	6561
CG13850	DRSC14700	2.85	1.49	6558	6638
sloth2 + sloth1	DRSC17922	3.83	8.71	6501	6248
sloth2 + sloth1	DRSC17923	5.39	2.45	6564	6358
CG15353	DRSC00383	30	31	5723	6612
CG15353	DRSC24727	3.41	1.42	6250	5967
CG13332	DRSC06367	28.8	16.7	4022	5120
CG10570 + CG42502	DRSC28566	10.7	7.3	3878	2548
CG4789	DRSC19918	16.9	7	6552	6298
Arl6	DRSC07031	1.69	2.53	6632	6394
ProtA	DRSC03372	1.94	3.15	6120	6391
CG6602	DRSC10673	3.59	2	5966	5898
CG1314	DRSC20495	9.43	2.65	6339	6217
l(2)41Ab	DRSC21007	3.24	8.56	6564	5341
Urod	DRSC07569	4.18	7.33	6835	7091
Urod	DRSC30007	14.1	9.26	6178	6157
CG15712	DRSC06583	25.5	7.67	6033	6271
Obp56d	DRSC06064	3.8	3.59	5871	6025
Nelf-A	DRSC15903	3.14	2.62	6268	5943
hdm	DRSC18013	2.63	4.35	6353	6200
mRpS29	DRSC04398	9.15	20.5	5696	5518
mRpS29	DRSC27790	14.8	26.7	6332	2727
CG14074	DRSC10079	9.18	12.8	6197	6446
CG14074	DRSC29481	2.94	18.5	1053	5081
Loxl1	DRSC14303	4.91	4.83	6291	6466
Mnn1	DRSC03368	2.07	25.1	6621	4049
CG15365	DRSC23021	1.93	2.41	6386	6875
IP3K1	DRSC02734	11.6	3.18	6329	5715
KFase	DRSC03258	2.38	2.57	6434	6648
KFase	DRSC30035	4.61	9.67	6319	6243
